Compound potency records, mixed from different reports. Data source: NIAID ChemDB in PubChem.

ICn is the concentration giving n% inhibition. Blank or dashed fields: not listed here. Lines come from different laboratories, so protocols vary. MIC50, MIC90 and the like: level of inhibition, or share of isolates inhibited. ECn: concentration that inhibits the pathogen or its effect by n%. MIC bound comes from a single tested concentration. Percent inhibition refers to the dose given; in toxicity tests it is the harm to the cells.

SMILES	test	agent	strain	cell line	protein	method	measure	dose	value
FC(F)(F)c1ccc(N2CCN(c3cncc(-c4ccoc4)n3)CC2)cc1	target	Cytomegalovirus			UL97 kinase		IC50		<100 µM
c1ccc(OCCOc2ccccc2)cc1	culture	Mycobacterium tuberculosis	H37Rv				MIC		100 µg/mL
NC(=[SH+])[N-]/N=C/c1nccc2ccccc12.[Cl][Cu]	culture	Mycobacterium tuberculosis	H37Rv			BACTEC	inhibition	12.5 µg/mL	92%
O=[N+]([O-])c1c(Sc2ccc(Cl)cc2)ccc2ncccc12	culture	Mycobacterium tuberculosis	H37Rv				MIC		>100 µg/mL
CC1=N/C(=C\c2cccc(Cl)c2)C(=O)O1	culture	Mycobacterium tuberculosis	H37Rv			BACTEC	inhibition	12.5 µg/mL	-1%
C#CC[C@@H](C(=O)N[C@H](/C=C/C(=O)OCC)C[C@@H]1CCNC1=O)n1cccc(NC(=O)c2cc(C)on2)c1=O	culture	Rhinovirus	Serotype 14	H1-HELA		cytopathic effect / XTT	inhibition	0.204 µM	90%
O=S(=O)([O-])c1ccc(NS(=O)(=O)c2ccccc2)c2c(S(=O)(=O)[O-])cccc12	culture	Adenovirus	TYPE 3	Human amnion AV3 cells		cytopathic effect	inhibition	50 µg/mL	0%
Nc1ccc(Br)cc1-c1ccccc1	culture	Mycobacterium tuberculosis	H37Rv				MIC		>100 µg/mL
CN=C(N)N/N=C(\C)c1ccc2oc3ccc(/C(C)=N/NC(N)=NC)cc3c2c1	culture	Mycobacterium tuberculosis	H37Rv			BACTEC	MIC bound		>12.5 µg/mL
Clc1ccc(-c2cncc(N3CCN(c4ccncc4)CC3)n2)cc1	target	Cytomegalovirus			UL97 kinase		inhibition	1 µM	<50%
Nc1cc(=O)n(-c2ccccc2)[nH]1	culture	Mycobacterium tuberculosis	H37Rv			resazurin	MIC bound		>6.25 µg/mL
CC(C)c1cc(C(C)C)c(C(=O)Nc2nnc(NCCN3CCCCC3)s2)c(C(C)C)c1	target	Human cytomegalovirus			Polymerase		IC50		>25 µM
C=CCc1ccc(O)c(OC)c1	culture	Candida albicans	3034			turbidity	MIC90		490 µg/mL
O=C(O)COc1ccc(N=Nc2ccccc2)cc1	culture	Mycobacterium tuberculosis	H37Rv				MIC		25 µg/mL
NC(=S)NN=C1CCCCCCC1	culture	Mycobacterium tuberculosis	H37Rv			BACTEC	MIC bound		≤12.5 µg/mL
O=[N+]([O-])c1cccs1	culture	Mycobacterium tuberculosis	H37Rv				MIC		>100 µg/mL
C[C@H](Cc1ccc(O)c(O)c1)[C@@H](C)Cc1ccc(O)c(O)c1	culture	Candida albicans	CCC 125-2000			broth dilution	MIC100		250 µg/mL
COc1cc(C2C3=C(N=C4SC(C(C)=O)=C(C)N42)c2ccccc2CC3)cc(OC)c1OC	culture	Mycobacterium tuberculosis	H37Rv			BACTEC	MIC bound		>12.5 µg/mL
C=C(C)C(CCC#N)(CCC#N)C(C)=O	culture	Mycobacterium tuberculosis	H37Rv				MIC		100 µg/mL
O=C(NC(=S)c1ccco1)NS(=O)(=O)c1ccc(Cl)cc1	culture	Mycobacterium tuberculosis	H37Rv			resazurin	MIC bound		>6.25 µg/mL
O=[N+]([O-])c1cc(I)c(O)c(I)c1	culture	Mycobacterium tuberculosis	H37Rv				MIC		>100 µg/mL
O=C(Nc1nnc(NC2CCc3ccccc32)s1)c1c(Cl)cccc1Cl	target	Human cytomegalovirus			Polymerase		IC50		<25 µM
CCO.O=C(NCc1ccccc1)Nc1nc(-c2ccccc2)c(-c2ccccc2)nc1C(=O)NCc1ccccc1	culture	Mycobacterium tuberculosis	H37Rv			BACTEC	MIC		≥12.5 µg/mL
OC(COc1ccccc1)COc1ccccc1	culture	Mycobacterium tuberculosis	H37Rv				MIC		25 µg/mL
CCCCCCCC/C=C/CCCCCCCC(=O)Nc1nnc(NC2CC2)s1	target	Human cytomegalovirus			Polymerase		IC50		<25 µM
CSc1ccc(-c2cncc(N3CCN(c4ccccc4F)CC3)n2)cc1	target	Cytomegalovirus			UL97 kinase		inhibition	1 µM	<50%
O=c1c(I)c[nH]cc1I	culture	Mycobacterium tuberculosis	H37Rv				MIC		>100 µg/mL
Oc1cccc(-c2cncc(N3CCN(c4ccncc4)CC3)n2)c1	target	Cytomegalovirus			UL97 kinase		IC50		<10 µM
O=[As]c1ccc(Nc2nccs2)cc1	culture	Mycobacterium tuberculosis	H37Rv				MIC		>100 µg/mL
Fc1ccc(N2CCCCC2)c(NC(=S)c2ccncc2)c1	host protein				PAK6	kinase activity	inhibition	10 µM	-7%
Oc1cccc(NC(=S)Nc2cccc(O)c2)c1	culture	Mycobacterium tuberculosis	H37Rv				MIC		100 µg/mL
Nc1c(/C=C/c2cc3cc(C4=NCCN4)ccc3o2)[nH]c2cc(C3=NCCN3)ccc12	culture	Mycobacterium tuberculosis	H37Rv			BACTEC	inhibition	12.5 µg/mL	1%
O=S(=O)(O)c1cc(O)c2c(O)c(N=Nc3ccccc3)c(S(=O)(=O)O)cc2c1	culture	Herpes simplex virus		Human amnion AV3 cells		cytopathic effect	inhibition	5 µg/mL	0%
O=c1[nH]c2ccc(CC(=S)N3CCN(c4ccccc4)CC3)cc2s1	culture	Mycobacterium tuberculosis	H37Rv			BACTEC	MIC bound		>6.25 µg/mL
COc1cc2c(cc1OC)C(C)/C(=N/O)C2=O	culture	Mycobacterium tuberculosis	H37Rv				MIC		>100 µg/mL
O=C(Nc1ccc2cc(S(=O)(=O)[O-])cc(S(=O)(=O)[O-])c2c1)c1ccccc1	culture	Rhinovirus		Human embryonic lung cells		cytopathic effect	inhibition	10 µg/mL	50%
CCO/N=C/c1ccc(OCCC2CCN(c3ccc(C)nn3)CC2)cc1	culture	Rhinovirus	611-CV35 (ICAM-1 receptor group 59)	KB		neutral red	EC50		0.008 µM
CN(CCOC(=O)Nc1ccccc1)CCOC(=O)Nc1ccccc1	culture	Mycobacterium tuberculosis	H37Rv				MIC		100 µg/mL
CCC(CC)O[C@@H]1C=C(C(=O)O)C[C@H](N)[C@H]1NC(C)=O	culture	Influenza B virus	B/HONG KONG/5/72	MDCK			EC50		2.5 µM
Nc1nc(N)nc(N)n1	culture	Mycobacterium tuberculosis	H37Rv				MIC		>100 µg/mL
CSc1nc2n(Cc3cn(C)c(=O)n(C)c3=O)cc(C)cc-2c(=O)n1	culture	Mycobacterium tuberculosis	H37Rv			BACTEC	inhibition	12.5 µg/mL	13%
O=S(=O)([O-])c1cc(O)c2ccccc2c1	culture	Herpes simplex virus		Human amnion AV3 cells		cytopathic effect	inhibition	50 µg/mL	0%
CC1=CC(=O)CC(C)C1	culture	Mycobacterium tuberculosis	H37Rv				MIC		>100 µg/mL
Fc1ccc(-c2cncc(N3CCN(c4ccc(F)cc4)CC3)n2)cc1	target	Cytomegalovirus			UL97 kinase		inhibition	10 µM	>15%
O=C(Nc1nnc(NC2CCc3ccccc32)s1)c1ccc2c(c1)C(=O)OC2=O	target	Human cytomegalovirus			Polymerase		IC50		<25 µM
FC(F)(F)c1ccc(N2CCN(c3cncc(-c4ccc5ccccc5c4)n3)CC2)cc1	target	Cytomegalovirus			UL97 kinase		inhibition	1 µM	<50%
Nc1ccc(S(=O)(=O)[O-])c2c(S(=O)(=O)[O-])ccc(O)c12	culture	Herpes simplex virus		Human conjunctiva cells		cytopathic effect	inhibition	5 µg/mL	0%
Fc1ccc(-c2cncc(N3CCN(c4cccc(Cl)c4)CC3)n2)cc1	target	Cytomegalovirus			UL97 kinase		inhibition	1 µM	<50%
CCN(CC)CCCC(C)Nc1ccnc2c1ccc1cccnc12	culture	Mycobacterium tuberculosis	H37Rv				MIC		25 µg/mL
CCOC(=O)C1=NN(c2ccccc2)C(=O)C1N=Nc1ccc(NS(=O)(=O)c2nccs2)cc1	culture	Mycobacterium tuberculosis	H37Rv			BACTEC	MIC		≥12.8 µg/mL
CCCCCCCC/C=C/CCCCCCCC(=O)Nc1nnc(NCc2ccco2)s1	target	Human cytomegalovirus			Polymerase		IC50		>25 µM
CCN(CC)CCSCCNc1ccc2ccccc2n1.Cl	culture	Mycobacterium tuberculosis	H37Rv				MIC		100 µg/mL
CNC(=O)c1cc(NC(=O)N(CCC#N)CCN(C(=O)NC(Cc2ccccc2)C(=O)NC(CC(C)C)C(=O)NC)c2ccccc2)ccc1OC	culture	Mycobacterium tuberculosis	H37Rv			resazurin	inhibition	6.25 µg/mL	-8%
Nc1ccc(Sc2ccc(Cl)cc2)c(N)c1	culture	Mycobacterium tuberculosis	H37Rv				MIC		>100 µg/mL
CO[C@H]1[C@H](O)C[C@H](O[C@@H]2C[C@H](O[C@@H]3C[C@H](O[C@@H]4C(=O)c5c(cc6cc(O[C@H]7C[C@@H](O[C@H]8C[C@@H](O)[C@H](O)[C@@H](C)O8)[C@H](O)[C@@H](C)O7)c(C)c(O)c6c5O)C[C@H]4[C@H](OC)C(=O)[C@@H](O)[C@@H](C)O)O[C@H](C)[C@H]3O)O[C@H](C)[C@H]2O)O[C@@H]1C	culture	Mycobacterium tuberculosis	H37Rv				inhibition	6.25 µg/mL	9%
c1coc(CNc2nccnc2-c2cc3ccccc3o2)c1	target	Cytomegalovirus			UL97 kinase		IC50		<100 µM
C=C1C(=O)C23OC2C1CCC(=O)C1(C)CCC(OC(C)=O)C(C)(C)C1CC3=O	culture	Mycobacterium tuberculosis	H37Rv	VERO		BACTEC	MIC		>12.5 µg/mL
O=C(Nc1nnc(NC2CCCCCC2)s1)c1ccc(Cl)c(Cl)c1	target	Human cytomegalovirus			Polymerase		IC50		>25 µM
O=C1NC(SC(SC2=NNC3(C(=O)N2)c2ccccc2-c2ccccc23)=C(SC2=NNC3(C(=O)N2)c2ccccc2-c2ccccc23)SC2=NNC3(C(=O)N2)c2ccccc2-c2ccccc23)=NNC12c1ccccc1-c1ccccc12	culture	Mycobacterium tuberculosis	H37Rv			BACTEC	MIC bound		>12.5 µg/mL
O=S(=O)([O-])c1cc(I)c(O)c(I)c1.[Na+]	culture	Mycobacterium tuberculosis	H37Rv				MIC		>100 µg/mL
Cc1cc(OC(=O)Nc2ccc(C)c([N+](=O)[O-])c2)c(Br)cc1Cl	culture	Mycobacterium tuberculosis	H37Rv			BACTEC	inhibition	12.5 µg/mL	31%
[O-][N+](=Nc1ccccc1)c1ccccc1	culture	Mycobacterium tuberculosis	H37Rv				MIC		25 µg/mL
CCOC(=O)C1=NN(c2ccccc2)C(=O)C1N=Nc1ccc(S(=O)(=O)Nc2nccc(C)n2)cc1	culture	Mycobacterium tuberculosis	H37Rv			resazurin	inhibition	6.25 µg/mL	21%
CC(=O)c1ccc(N2CCN(c3cncc(-c4ccc(F)c(Cl)c4)n3)CC2)cc1	target	Cytomegalovirus			UL97 kinase		IC50		<100 µM
CC(=O)OCCCn1nc(COC(N)=O)c2c1CC(C)CC2=O	culture	Mycobacterium tuberculosis	H37Rv			resazurin	MIC bound		>6.25 µg/mL
O=C(Nc1nnc(NCCCCc2ccccc2)s1)c1ccc2c(c1)C(=O)OC2=O	target	Human cytomegalovirus			Polymerase		IC50		<25 µM
CC(/C=N/NC(=S)SCc1ccccc1)=N\N=C(N)N	culture	Mycobacterium tuberculosis	H37Rv			BACTEC	MIC		16 µg/mL
O=C(Nc1cc(S(=O)(=O)[O-])cc2cc(S(=O)(=O)[O-])ccc12)c1ccccc1	culture	Rhinovirus		Human amnion AV3 cells		cytopathic effect	inhibition	10 µg/mL	0%

For reference, 6 entries again:

{"SMILES": "O=[N+]([O-])c1cc(I)c(O)c(I)c1", "test": "culture", "agent": "Mycobacterium tuberculosis", "strain": "H37Rv", "measure": "MIC", "value": ">100 µg/mL"}
{"SMILES": "C=C(C)C(CCC#N)(CCC#N)C(C)=O", "test": "culture", "agent": "Mycobacterium tuberculosis", "strain": "H37Rv", "measure": "MIC", "value": "100 µg/mL"}
{"SMILES": "NC(=S)NN=C1CCCCCCC1", "test": "culture", "agent": "Mycobacterium tuberculosis", "strain": "H37Rv", "method": "BACTEC", "measure": "MIC bound", "value": "≤12.5 µg/mL"}
{"SMILES": "O=S(=O)([O-])c1ccc(NS(=O)(=O)c2ccccc2)c2c(S(=O)(=O)[O-])cccc12", "test": "culture", "agent": "Adenovirus", "strain": "TYPE 3", "cell line": "Human amnion AV3 cells", "method": "cytopathic effect", "measure": "inhibition", "dose": "50 µg/mL", "value": "0%"}
{"SMILES": "Oc1cccc(NC(=S)Nc2cccc(O)c2)c1", "test": "culture", "agent": "Mycobacterium tuberculosis", "strain": "H37Rv", "measure": "MIC", "value": "100 µg/mL"}
{"SMILES": "Nc1ccc(Br)cc1-c1ccccc1", "test": "culture", "agent": "Mycobacterium tuberculosis", "strain": "H37Rv", "measure": "MIC", "value": ">100 µg/mL"}